Measured values from several laboratories, pooled; numbers as filed in NIAID ChemDB.

Shared fields: whole-cell or culture tests; agent: Candida albicans; read-out: MIC

Conditions beyond the fields shown may differ between rows.

compound,strain,value
CCCCCOc1ccc(-c2ccc(-c3ccc(C(=O)N[C@H]4CCCNC(=O)C5C[C@H](N=C(N)N)CN5C(=O)C(C(C)O)NC(=O)C(CCc5ccc(O)cc5)NC(=O)C5C[C@@H](O)CN5C(=O)C(C(C)O)NC4=O)cc3)cc2)cc1,ATCC 10231,0.2 µg/mL
CCCCCCCOc1ccc(N2CCN(c3ccc(C(=O)N[C@H]4CCCNC(=O)[C@@H]5C[C@H](N)CN5C(=O)[C@H]([C@@H](C)O)NC(=O)[C@H](Cc5ccc(CO)cc5)NC(=O)[C@@H]5CCCN5C(=O)[C@H](C(C)O)NC4=O)cc3)CC2)cc1,ATCC 38247,12.5 µg/mL
COc1ccc2c(C)c(/C(=N/O)c3ccccc3)oc2c1,Clinical isolate,12.5 µg/mL
CCCCCOc1ccc(-c2ccc(-c3ccc(C(=O)N[C@H]4CCCNC(=O)C5C[C@H](NC(=O)C[N+](C)(C)C)CN5C(=O)C(C(C)O)NC(=O)C(CCc5ccc(O)cc5)NC(=O)C5C[C@@H](O)CN5C(=O)C(C(C)O)NC4=O)cc3)cc2)cc1,ATCC 62376,1.56 µg/mL
Cc1c(Cl)[n+](=O)c2cc(Cl)ccc2n1[O-],Clinical isolate 14,31.25 µg/mL
C[C@@H](n1cnc2cc(OCC(F)(F)F)ccc2c1=O)[C@](O)(Cn1cncn1)c1ccc(F)cc1F,406 strains,0.07 µg/mL
C[C@H]1[C@H](O)[C@@H](C)/C=C/C=C/C=C/C=C/C=C/C=C/C=C/[C@H](O[C@@H]2O[C@H](C)[C@@H](O)[C@H](N)[C@@H]2O)C[C@@H]2O[C@](O)(C[C@@H](O)C[C@@H](O)CC[C@H](O)[C@@H](O)C[C@@H](O)CC(=O)O[C@H]1C)C[C@H](O)[C@H]2C(=O)O,AD 83/004 (azole-resistant),≤0.03 µg/mL
CC(=O)N[C@H]1CCCNC(=O)[C@@H]2C[C@H](N)CN2C(=O)[C@H]([C@@H](C)O)NC(=O)[C@H](CCc2ccc(O)cc2)NC(=O)[C@@H]2C[C@@H](O)CN2C(=O)[C@H]([C@@H](C)O)NC1=O,ATCC 62376,>100 µg/mL
CSC[C@H](N)C(=O)N[C@H]1[C@@H](O)[C@H](n2cnc3c(N)ncnc32)O[C@@H]1C(=O)O,FP633,>100 µg/mL
CCCCCOc1ccc(-c2ccc(-c3ccc(C(=O)N[C@H]4CCCNC(=O)[C@@H]5C[C@H](NCc6ccccc6)CN5C(=O)[C@H]([C@@H](C)O)NC(=O)[C@H](CCc5ccc(O)cc5)NC(=O)[C@@H]5C[C@@H](O)CN5C(=O)[C@H]([C@@H](C)O)NC4=O)cc3)cc2)cc1,ATCC 38247,6.25 µg/mL
O=[n+]1c(Sc2ccccc2)c(CBr)n([O-])c2ccccc21,Clinical isolate 23,31.25 µg/mL
Nc1ncnc2c1ncn2[C@@H]1O[C@H](C(=O)NO)[C@@H](NC(=O)[C@H](N)CSCc2ccccc2)[C@H]1O,FP633,6.2 µg/mL
O=C(c1ccc(Cl)cc1)c1oc2ccccc2c1Cn1cncn1,Clinical isolate,25 µg/mL
C[C@H]1[C@H](O)[C@@H](C)/C=C/C=C/C=C/C=C/C=C/C=C/C=C/[C@H](O[C@@H]2O[C@H](C)[C@@H](O)[C@H](N)[C@@H]2O)C[C@@H]2O[C@](O)(C[C@@H](O)C[C@@H](O)CC[C@H](O)[C@@H](O)C[C@@H](O)CC(=O)O[C@H]1C)C[C@H](O)[C@H]2C(=O)O,Darlington,2 µg/mL
N=C(N)c1ccc2nc(-c3ccc(-c4nc5ccc(C(=N)N)cc5[nH]4)[nH]3)[nH]c2c1,Isolate CA2601 fluconazole-resistant,0.78 µg/mL
COc1ccc(C[C@H](NC(=O)[C@H](N)CCCN=C(N)N)C(=O)N[C@H]2[C@@H](O)[C@H](n3cnc4c(N)ncnc43)O[C@@H]2C(=O)O)cc1,FP633,>100 µg/mL
CCCCCOc1ccc(-c2ccc(-c3ccc(C(=O)N[C@H]4CCCNC(=O)C5CN(C(=O)OCc6ccccc6)CN5C(=O)C(C(C)O)NC(=O)C(CCc5ccc(O)cc5)NC(=O)C5C[C@@H](O)CN5C(=O)C(C(C)O)NC4=O)cc3)cc2)cc1,ATCC 62376,>100 µg/mL
CCCCCOc1ccc(-c2ccc(-c3ccc(C(=O)N[C@H]4CCCNC(=O)[C@@H]5C[C@H](NC(=O)CCC(=O)O)CN5C(=O)[C@H]([C@@H](C)O)NC(=O)[C@H](CCc5ccc(O)cc5)NC(=O)[C@@H]5C[C@@H](O)CN5C(=O)[C@H]([C@@H](C)O)NC4=O)cc3)cc2)cc1,ATCC 62376,0.78 µg/mL
Cc1ccc(C(Cn2ccnc2)OCc2ccc(C(C)(C)C)cc2)cc1,CDCB385,128 µg/mL
Cc1c(O)cccc1C(=O)N[C@@H](CSc1ccccc1)[C@H](O)CN1C[C@H]2CCCC[C@H]2C[C@H]1C(=O)NC(C)(C)C,I53,>64 µg/mL
CCCCCCCCOc1ccc(N2CCN(c3ccc(C(=O)N[C@H]4CCCNC(=O)[C@@H]5C[C@H](N)CN5C(=O)[C@H](CCN)NC(=O)[C@H](CCc5ccc(O)cc5)NC(=O)[C@@H]5CCCN5C(=O)[C@H]([C@@H](C)O)NC4=O)cc3)CC2)cc1,ATCC 62376,0.2 µg/mL
CCCCCOc1ccc(-c2ccc(-c3ccc(C(=O)N[C@H]4CCCNC(=O)C5C[C@H](NC(=O)NCCC(C)C)CN5C(=O)C(C(C)O)NC(=O)C(CCc5ccc(O)cc5)NC(=O)C5C[C@@H](O)CN5C(=O)C(C(C)O)NC4=O)cc3)cc2)cc1,ATCC 10231,12.5 µg/mL
CCCC(O)C/C=C\C=C\C(=O)OC[C@H]1O[C@@H](O[C@@H]2[C@H](OC(=O)/C=C/C=C/CC(O)/C(C)=C/C=C/CCC(C)CC)[C@@H](O)[C@]3(OCc4cc(O)cc(O)c43)O[C@@H]2CO)[C@H](O)[C@@H](O)[C@H]1O,MY1783,2 µg/mL
Cc1cccc2ncn([C@H](C)[C@](O)(Cn3cncn3)c3ccc(F)cc3F)c(=O)c12,76 strains,10 µg/mL
Cc1c(Sc2ccccc2)[n+](=O)c2cc(C(F)(F)F)ccc2n1[O-],Clinical isolate 17,31.25 µg/mL
C[C@@H](c1nc(-c2ccc(C#N)cc2)cs1)[C@](O)(Cn1cncn1)c1ccc(F)cc1F,60 strains,≤0.03 µg/mL
c1ccc(C(Cn2ccnc2)OCc2cccc3ccccc23)cc1,5M,>128 µg/mL
C[C@@H](n1cnc2c(Cl)cc(Cl)cc2c1=O)[C@](O)(Cn1cncn1)c1ccc(F)cc1F,406 strains,≤0.03 µg/mL
CC(/C=C/C=C(\C)C(O)C(C)C(=O)O[C@H]1C[C@@H](C)C=C2C=C[C@]3(C)O[C@@H](O)CC(=O)[C@]3(C)[C@H]21)=C\C=C\C(=O)O,AC3414,0.78 µg/mL
CCCCCOc1ccc(-c2ccc(-c3ccc(C(=O)N[C@H]4CCCNC(=O)[C@@H]5C[C@H](N)CN5C(=O)[C@H](Cc5ccc(O)cc5)NC(=O)C(CCc5ccc(O)cc5)NC(=O)[C@@H]5C[C@@H](O)CN5C(=O)[C@H]([C@@H](C)O)NC4=O)cc3)cc2)cc1,ATCC CCH442,0.39 µg/mL
Cc1ccc(C(Cn2ccnc2)OC/C=C/c2ccccc2)cc1,Y0109,128 µg/mL
CCCCCOc1ccc(-c2ccc(-c3ccc(C(=O)N[C@H]4CCCNC(=O)C5C[C@H](NC(=O)Nc6ccccc6)CN5C(=O)C(C(C)O)NC(=O)C(CCc5ccc(O)cc5)NC(=O)C5C[C@@H](O)CN5C(=O)C(C(C)O)NC4=O)cc3)cc2)cc1,ATCC 62376,6.25 µg/mL
Cc1ccc(C(Cn2ccnc2)OCc2ccc(-c3ccccc3)cc2)cc1,5M,128 µg/mL
O/N=C(\c1ccccc1)c1oc2ccccc2c1Cn1ccnc1,NRRL Y-27077,12.5 µg/mL
N[C@@H](Cc1ccccc1)C(=O)N[C@H]1[C@@H](O)[C@H](n2ccc(=O)[nH]c2=O)O[C@@H]1C(=O)O,FP633,>100 µg/mL
CCCCCOc1ccc(-c2ccc(-c3ccc(C(=O)N[C@H]4CCCNC(=O)[C@@H]5C[C@H](N)CN5C(=O)C(C)(C)NC(=O)C(CCc5ccc(O)cc5)NC(=O)[C@@H]5C[C@@H](O)CN5C(=O)[C@H]([C@@H](C)O)NC4=O)cc3)cc2)cc1,ATCC 38247,25 µg/mL
C[C@@H](n1cnc2cc(NC(=O)C(F)(F)F)c(F)cc2c1=O)[C@](O)(Cn1cncn1)c1ccc(F)cc1F,406 strains,5 µg/mL
CCCCCOc1ccc(-c2ccc(-c3ccc(C(=O)N[C@H]4CCCNC(=O)C5C[C@H](NCCN)CN5C(=O)C(C(C)O)NC(=O)C(CCc5ccc(O)cc5)NC(=O)C5C[C@@H](O)CN5C(=O)C(C(C)O)NC4=O)cc3)cc2)cc1,ATCC CCH442,0.39 µg/mL
Clc1ccc(C(Cn2ccnc2)OCc2cccc3ccccc23)c(Cl)c1,CA7,4 µg/mL
CCC(C)CC(C)CCCCCCCCC(=O)NC1C[C@H](O)[C@@H](O)NC(=O)[C@@H]2[C@@H](O)[C@@H](C)CN2C(=O)[C@H]([C@H](O)CC(N)=O)NC(=O)[C@H](C(O)[C@H](O)c2ccc(O)cc2)NC(=O)[C@@H]2C[C@@H](O)CN2C(=O)[C@H]([C@@H](C)O)NC1=O,MY1750,0.25 µg/mL
O=C(c1ccc(Cl)cc1)c1oc2ccc(Cl)cc2c1Cn1cncn1,Clinical isolate,25 µg/mL
Nc1ncnc2c1ncn2[C@@H]1O[C@H](C(=O)O)[C@@H](NC(=O)CCc2ccccc2)[C@H]1O,FP633,>100 µg/mL
O[C@](Cn1cncn1)(Cn1cnc(/C=C/c2ccc(OCC(F)(F)C(F)F)cc2)n1)c1ccc(F)cc1F,Isolate 04-33,2 µg/mL
CCc1ccc2c(C)c(C(=O)c3ccc(Cl)cc3)oc2c1,NRRL Y-27077,50 µg/mL
CCCCCCCCOc1ccc(N2CCN(c3ccc(C(=O)N[C@H]4CCCNC(=O)[C@@H]5C[C@H](N)CN5C(=O)[C@H](CCN)NC(=O)[C@H](CCc5ccc(O)cc5)NC(=O)[C@@H]5C[C@@H](O)CN5C(=O)[C@H]([C@@H](C)O)NC4=O)cc3)CC2)cc1,ATCC 62376,0.2 µg/mL
CCOc1cc2c(cc1F)n([O-])c(C)c(Cl)[n+]2=O,Clinical isolate 23,15.6 µg/mL
CCCCCOc1ccc(-c2ccc(-c3ccc(C(=O)N[C@H]4CCCNC(=O)C5C[C@H](F)N5C(=O)C(C(C)O)NC(=O)C(CCc5ccc(O)cc5)NC(=O)C5C[C@@H](O)CN5C(=O)C(C(C)O)NC4=O)cc3)cc2)cc1,ATCC 10231,0.78 µg/mL
Cc1c(S(=O)(=O)c2ccccc2)[n+](=O)c2ccccc2n1[O-],Clinical isolate 21,15.6 µg/mL
C[C@H]1[C@H](O)[C@@H](C)/C=C/C=C/C=C/C=C/C=C/C=C/C=C/[C@H](O[C@@H]2O[C@H](C)[C@@H](O)[C@H](N)[C@@H]2O)C[C@@H]2O[C@](O)(C[C@@H](O)C[C@@H](O)CC[C@H](O)[C@@H](O)C[C@@H](O)CC(=O)O[C@H]1C)C[C@H](O)[C@H]2C(=O)O,ATCC64552,2 µg/mL

Again, the opening 3 rows:

compound,strain,value
CCCCCOc1ccc(-c2ccc(-c3ccc(C(=O)N[C@H]4CCCNC(=O)C5C[C@H](N=C(N)N)CN5C(=O)C(C(C)O)NC(=O)C(CCc5ccc(O)cc5)NC(=O)C5C[C@@H](O)CN5C(=O)C(C(C)O)NC4=O)cc3)cc2)cc1,ATCC 10231,0.2 µg/mL
CCCCCCCOc1ccc(N2CCN(c3ccc(C(=O)N[C@H]4CCCNC(=O)[C@@H]5C[C@H](N)CN5C(=O)[C@H]([C@@H](C)O)NC(=O)[C@H](Cc5ccc(CO)cc5)NC(=O)[C@@H]5CCCN5C(=O)[C@H](C(C)O)NC4=O)cc3)CC2)cc1,ATCC 38247,12.5 µg/mL
COc1ccc2c(C)c(/C(=N/O)c3ccccc3)oc2c1,Clinical isolate,12.5 µg/mL